Measurements reported in paper PMC6598307, “Directed evolution of a genetically encoded immobilized lipase for the efficient production of biodiesel from waste cooking oil” (Biotechnology for Biofuels, 2019).

Test system: CCCCCCCCCCCCCCCC(=O)Oc1ccc([N+](=O)[O-])cc1
Assay: purified protein
Conditions: soluble free enzyme, 0.1 M NaH2PO4 pH 7.0, 25 °C, 1 nM enzyme, pNPP 0-2.25 mM, pNPP stock in MeCN:Triton X-100 1:1

Proteus mirabilis lipase (PML), soluble (Proteus mirabilis HI4320; E130G/I118V)
Km: 234 ± 51 µM | kcat: 59.2 s⁻¹ | kcat/Km: 253000 M⁻¹ s⁻¹
